Experimental data from ChEMBL document CHEMBL2434870, “Design of substituted imidazolidinylpiperidinylbenzoic acids as chemokine receptor 5 antagonists: potent inhibitors of R5 HIV-1 replication” (J Med Chem, 2013).

Amino acid sequences for entries named in this document (tags omitted).
UniProt P51681, whole entry, looked up: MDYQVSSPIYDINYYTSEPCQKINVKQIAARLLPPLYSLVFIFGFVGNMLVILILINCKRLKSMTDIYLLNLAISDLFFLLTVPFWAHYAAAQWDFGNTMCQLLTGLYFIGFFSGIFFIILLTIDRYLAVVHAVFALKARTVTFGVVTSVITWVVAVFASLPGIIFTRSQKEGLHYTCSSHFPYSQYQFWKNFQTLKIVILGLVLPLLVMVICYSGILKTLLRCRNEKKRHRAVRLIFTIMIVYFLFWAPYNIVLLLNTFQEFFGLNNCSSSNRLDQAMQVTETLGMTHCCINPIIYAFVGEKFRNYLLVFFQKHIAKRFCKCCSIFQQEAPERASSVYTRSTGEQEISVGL

Target: C-C chemokine receptor type 5 (Homo sapiens, UniProt P51681)
Assay: Inhibition of CCR5 (unknown origin) expressed in human HeLa cells assessed as inhibition of interaction of CHO cells expressing HIV-1 JRFLenv and HIV-1 Tat and human HeLa cells expressing CD4 after 20 hrs by beta-galactosidase reporter gene assay relative to AGP
Type: cell-based

fold change (FC)	Structure (SMILES)
1	O=C(O)c1ccc(Oc2ccc(CN3CCC(N4C(=O)N(C5CCOCC5)C[C@H]4c4ccccc4)CC3)cc2)cc1
0.9	O=C(O)c1ccc(Sc2ccc(CN3CCC(N4C(=O)N(C5CCOCC5)C[C@H]4c4ccccc4)CC3)cn2)cc1
0.7	O=C(O)c1ccc(Oc2ccc(CN3CCC(N4C(=O)N(C5CCOCC5)C[C@H]4c4ccccc4)CC3)cn2)cc1
1.1	O=C(O)c1ccc(Oc2ccc(CN3CCC(N4C(=O)N(C5CCOCC5)C[C@H]4c4cccc(Cl)c4)CC3)cn2)cc1
1	Cc1nc(Sc2ccc(C(=O)O)cc2)ccc1CN1CCC(N2C(=O)N(C3CCOCC3)C[C@H]2c2ccccc2)CC1
1.8	Cc1nc(Nc2ccc(C(=O)O)cc2)ncc1CN1CCC(N2C(=O)N(C3CCOCC3)C[C@H]2c2cccc(Cl)c2)CC1
